Measured values: publication PMC5286506, “M48U1 and Tenofovir combination synergistically inhibits HIV infection in activated PBMCs and human cervicovaginal histocultures” (Scientific Reports, 2017)
Where two headings read alike, the source gives them in different places.

Tests used:
R5-tropic HIV-1BaL = assay: HIV-1BaL infection of activated PBMCs, HIV-1 gag p24 ELISA on day 7; type: cell-based; details: 1 μM M48U1 or 5 μM tenofovir in 0.25% HEC
Protocol: (§1) Mock-infected PBMCs were used as the negative control.
(§2) The antiviral activity of each drug, M48U1 and tenofovir, formulated in 0.25% HEC hydrogel was determined in an activated PBMC model. […] This mixture was added to PBMCs activated with IL-2 and PHA for a two-hour incubation at 37 °C. To evaluate the antiviral effect of M48U1, the level of HIV-1 gag p24 protein in the culture supernatant was determined at seven days post-infection using an ELISA. A significant decrease (p < 0.05; Mann Whitney test) in the HIV-1 p24 level was found (Fig. 1).
(§3) Figure 1 M48U1 and tenofovir formulated in 0.25% HEC each inhibited the replication of both R5-tropic HIV-1BaL and X4-tropic HIV-1IIIb in activated PBMCs. […] After this incubation, these solutions were used to resuspend activated PBMCs for 2 hours at 37 °C. HIV-1 replication was monitored by a HIV-1 p24 ELISA assay on the cell culture supernatants performed on day 7 post-infection. […] Three experiments in triplicate were performed.

X4-tropic HIV-1IIIb = assay: HIV-1IIIb infection of activated PBMCs, HIV-1 gag p24 ELISA on day 7; type: cell-based; details: 1 μM M48U1 or 5 μM tenofovir in 0.25% HEC
Protocol: as §1, §2, §3

pREJO.c/2864 T/F IMC = assay: T/F IMC infection of TZM-bl cells, luciferase readout; type: cell-based, HIV-1; details: pREJO.c/2864, TZM-bl cells
Protocol: (§4) To analyze the inhibition of infection with HIV-1 T/F strains, a final concentration of 1 μM or 6.7 μM of M48U1 and 5 μM or 20 μM of tenofovir both in 0.25% HEC, were plated in triplicate in a 96-well flat bottom plate in 10% D-MEM containing 20 TCID50 of each T/F IMC (150 μL/well), and incubated for 1 hour at 37 °C. TZM-bl cells (1 × 10^4/well in a 100 μL volume) in 10% D-MEM growth medium containing DEAE-dextran (Sigma) at a final concentration of 7.5 μg/mL were then added to the plate. Assay controls included replicate wells of TZM-bl cells alone in HEC 0.25% (cell control) and TZM-bl cells with virus (virus control). Following 72 hours of incubation at 37 °C, 150 μL of culture medium were removed from each well and replaced with 100 μL of Bright-Glo luciferase reagent (Promega). After 2-minutes of incubation, 150 μL of the cell lysate were transferred to a 96-well white solid plate and luminescence was measured using a Victor Light 2030 luminometer (Perkin Elmer). […]
(§5) Figure 2 M48U1 in 0.25% HEC and tenofovir in 0.25% HEC each inhibited several laboratory strains and patient-derived HIV-1 isolates. […] The HIV-1 strain tropism was determined with a sequencing analysis for the patient-derived strains. […] HIV-1 replication was monitored by the HIV-1 p24 ELISA assay using cell culture supernatants obtained on day 7 post-infection. […]

pTHRO.c/2626 T/F IMC = assay: as above; type: cell-based, HIV-1; details: pTHRO.c/2626, TZM-bl cells
Protocol: as §4, §5

HIV-1BaL = assay: HIV-1BaL-infected cervicovaginal histoculture (EpiVaginal), proviral DNA qPCR; type: cell-based; details: 0.67 μM M48U1, 2 μM tenofovir or both in 0.25% HEC; day 4 post-infection; vs HEC-treated infected samples
[1] = system: HIV-1BaL, HIV-1IIIb, HIV-1ADA, HIV-1RU132, HIV-1ARV-2, HIV-1CBL4; assay: Laboratory HIV-1 strains in activated PBMCs, p24 ELISA on day 7; type: cell-based; details: 1 μM M48U1 or 5 μM tenofovir in 0.25% HEC; p < 0.05
Protocol: as §1
(§6) Figure 2 M48U1 in 0.25% HEC and tenofovir in 0.25% HEC each inhibited several laboratory strains and patient-derived HIV-1 isolates. Treatment with either 1 μM M48U1/0.25% (A) or 5 μM tenofovir/0.25% HEC (B) inhibited the replication of all tested laboratory and patient-derived strains. The HIV-1 strain tropism was determined with a sequencing analysis for the patient-derived strains. The combination of the two HIV-1 drugs inhibited HIV-1 replication independent of the HIV-1 strain tropism. HIV-1 replication was monitored by the HIV-1 p24 ELISA assay using cell culture supernatants obtained on day 7 post-infection. […] Three experiments in triplicate were performed. Analysis of antiretroviral activity of 1 μM M48U1 in 0.25% HEC (C) or 5 μM tenofovir in 0.25% HEC (D) performed in TZM-bl cells infected with pREJO.c/2864 and pTHRO.c/2626 T/F IMCs. […] Each sample was performed in triplicate and was repeated in three independent experiments.

[2] = system: HIV-1 subtype B and C isolates (HIV-1AMBR5N, HIV-1FBR5N, HIV-1SLR5N, HIV-1ARR5X4, HIV-1CSBX4); assay: Patient-derived HIV-1 isolates in activated PBMCs, p24 ELISA on day 7; type: cell-based; details: 1 μM M48U1 (five isolates) or 5 μM tenofovir (three isolates from naïve patients) in 0.25% HEC; p < 0.05
Protocol: as §1, §6

EpiVaginal tissue model [3] = details: 20 μM tenofovir and/or 6.7 μM M48U1 in 0.25% HEC
[4] = set-up: method as in PMID 23236282, PMID 25645853; details: cited from earlier work
[5] = set-up: method as in PMID 23236282, PMID 25645853; details: cited from earlier work; remark: listed apart in the source
SHIV-1_162P3 = system: SHIV-1_162P3; set-up: method as in PMID 23236282; details: M48U1 vaginal gel, Cynomolgus macaques; cited from earlier work
in vitro = details: human
gp120 = details: higher than gp120 binding soluble CD4; cited from earlier work
EpiVaginal tissue model [6] = assay: LDH release in the EpiVaginal tissue model; details: 20 μM tenofovir and/or 6.7 μM M48U1 in 0.25% HEC
[7] = MTT tissue viability in the EpiVaginal tissue model; details: human
[8] = 1 μM M48U1 or 5 μM tenofovir in 0.25% HEC
[9] = 6.7 μM M48U1 or 20 μM tenofovir in 0.25% HEC

CC(C)C[C@@H]1NC(=O)CNC(=O)[C@H](CC(C)C)NC(=O)[C@H](CO)NC(=O)[C@H](CCCCN)NC(=O)[C@@H]2CSSC[C@@H](C(=O)N[C@H](C(N)=O)C(C)C)NC(=O)[C@H](C)NC(=O)[C@@H]3CSSC[C@H](NC(=O)[C@H](Cc4ccccc4)NC(=O)[C@H](Cc4cnc[nH]4)NC(=O)[C@H](CC(C)C)NC(=O)[C@H](CC(N)=O)NC(=O)CCSSC[C@H](NC(=O)[C@H](CCCNC(=N)N)NC(=O)CNC(=O)[C@H](CC(C)C)NC1=O)C(=O)N[C@@H](C)C(=O)N1CCC[C@@H]1C(=O)N[C@@H]([C@@H](C)O)C(=O)N[C@@H](Cc1ccc(OCC4CCCCC4)cc1)C(=O)N3)C(=O)N[C@@H](CCC(N)=O)C(=O)N[C@@H](CC(C)C)C(=O)N[C@@H](CCCNC(=N)N)C(=O)N2 [M48U1]
inhibition of HIV-1BaL replication (R5-tropic HIV-1BaL): over 90% | inhibition of HIV-1IIIb replication (X4-tropic HIV-1IIIb): over 90% | reduction in viral replication (pREJO.c/2864 T/F IMC; [8]): 96.7% | reduction in viral replication (pREJO.c/2864 T/F IMC; [9]): 96.6% | reduction in viral replication (pTHRO.c/2626 T/F IMC; [8]): 95% | reduction in viral replication (pTHRO.c/2626 T/F IMC; [9]): 95% | decrease in the amount of proviral HIV-1 DNA (folds of inhibition, mean) (HIV-1BaL): 7 fold | replication of laboratory HIV-1 strains (p24 in cell supernatant) [1]: suppressed the replication of all HIV-1 strains tested | infection of PBMCs with patient-derived HIV-1 subtype B and C isolates [2]: prevented infection of PBMCs with all HIV-1 subtype B and C isolates | IL-1α Release (EpiVaginal tissue model [3]; 1 hour): 8.0 ± 1.0 pg/mL | IL-1α Release (EpiVaginal tissue model [3]; 4 hours): 10.5 ± 1.1 pg/mL | IL-1α Release (EpiVaginal tissue model [3]; 18 hours): 33.8 ± 5.4 pg/mL | IL-1α Release (EpiVaginal tissue model [3]; 96 hours): 62.2 ± 9.3 pg/mL | stability in vaginal fluids [4]: stable | solubility at acidic pH [5]: very soluble | SHIV-1_162P3 infection (SHIV-1_162P3): prevented | CC50 at 7 day (in vitro): > 10 µM | affinity for gp120 relative to soluble CD4 (titer binding) (gp120): 100 fold | LDH release (Abs) (EpiVaginal tissue model [6]; 1 hour): 0.222 ± 0.05 Abs | LDH release (Abs) (EpiVaginal tissue model [6]; 4 hours): 0.364 ± 0.01 Abs | LDH release (Abs) (EpiVaginal tissue model [6]; 18 hours): 0.996 ± 0.2 Abs | LDH release (Abs) (EpiVaginal tissue model [6]; 96 hours): 1.544 ± 0.15 Abs | viability at 1 hour, 6.7 μM [7]: 98% | viability at 4 hours, 6.7 μM [7]: 98% | viability at 18 hours, 6.7 μM [7]: 89% | viability at 96 hours, 6.7 μM [7]: 91%
